Measurements from patent US10670612B2 (Saladax Biomedical, Inc., priority 2010, dated 2020).

Tested on: Aβ42
Assay: Sandwich Aβ42 assay (MSD ECL) measuring Aβ42 in human CSF with full length or modified reference standard
Conditions: peptide used as reference standard

Sequence: DAEFRHDSGYEVHMVGGVVIA (Modified Peptide) [Modified Aβ xx-42 peptide, native Aβ42 amino acids (1-14)(35-42) with no spacer in between]
- Aβ42 Concentration (CSF-1, 1:2 dil): Below limit of detection
- Aβ42 Concentration (CSF-1, 1:4 dil): Below limit of detection
- Aβ42 Concentration (CSF-2, 1:2 dil): 27.8 pg/mL
- Aβ42 Concentration (CSF-2, 1:4 dil): 56.8 pg/mL
- Aβ42 Concentration (CSF-3, 1:2 dil): 80.4 pg/mL
- Aβ42 Concentration (CSF-3, 1:4 dil): 126.4 pg/mL
